Compound potency records, mixed from different reports. Data source: NIAID ChemDB in PubChem.

Shared fields: host cell toxicity; cells: H9; endpoint: CC50

Neighbouring rows are from separate reports.

structure,method,value
CC1(C)CC[C@]2(C(=O)O)CC[C@]3(C)C(=CC[C@@H]4[C@@]5(C)CC[C@H](O)C(C)(C)[C@@H]5CC[C@]43C)[C@@H]2C1,,47.8 µM
CCN(CC)CCNc1ccnc(NCCCNC(=O)CC(=O)NCCNc2nccc(NCCN(CC)CC)n2)n1,,>50 µM
Nc1nc2c(ncn2[C@H]2C[C@H](O)[C@@H](CO)O2)c(=O)o1,,>30 µg/mL
O=C(OC[C@H]1O[C@@H](OC(=O)c2cc(O)c(O)c(O)c2)[C@H](O)[C@@H](O)[C@@H]1O)c1cc(O)c(O)c(O)c1,,38 µM
CC(C)[C@@H]1CC[C@]2(C(=O)O)CC[C@]3(C)[C@H](CC[C@@H]4[C@@]5(C)CC[C@H](OC(=O)C(C)(C)CC(=O)O)C(C)(C)[C@@H]5CC[C@]43C)[C@@H]12,,7.7 µM
C=C(C)[C@@H]1CC[C@]2(C(=O)O)CC[C@]3(C)[C@H](CC[C@@H]4[C@@]5(C)CC[C@H](OC(=O)CC(C)(C)CC(=O)O)C(C)(C)[C@@H]5CC[C@]43C)[C@@H]12,,4.5 µM
CC(C)[C@@H]1CC[C@]2(C(=O)OCc3ccccc3)CC[C@]3(C)[C@H](CC[C@@H]4[C@@]5(C)CC[C@H](O)C(C)(C)[C@@H]5CC[C@]43C)[C@@H]12,,>180 µM
Nc1nc2c(ncn2[C@@H]2O[C@H](COS(N)(=O)=O)[C@@H](O)[C@H]2O)c(=O)o1,,>30 µg/mL
COc1cc(C(=O)OC(=O)[C@]23CC[C@@H](C(C)C)[C@@H]2[C@H]2CC[C@@H]4[C@@]5(C)CC[C@H](OC(=O)c6cc(OC)c(OC)c(OC)c6)C(C)(C)[C@@H]5CC[C@@]4(C)[C@]2(C)CC3)cc(OC)c1OC,,53 µM
C=C(C)[C@@H]1CC[C@]2(COC(=O)C34CC5CC(CC(C5)C3)C4)CC[C@]3(C)[C@H](CC[C@@H]4[C@@]5(C)CC[C@H](OC(=O)CC(C)(C)CC(=O)O)C(C)(C)[C@@H]5CC[C@]43C)[C@@H]12,,>133.9 µM
CCOC(=O)c1cc(C(=O)c2ccccc2)n2ccc(C(=O)NCc3ccc4ccccc4c3)cc12,MTT,250.5 µM
C=C(C)[C@@H]1CC[C@]2(/C=N/OC(=O)CC(C)(C)CC(=O)O)CC[C@]3(C)[C@H](CC[C@@H]4[C@@]5(C)CC/C(=N\OC(=O)CC(C)(C)CC(=O)O)C(C)(C)[C@@H]5CC[C@]43C)[C@@H]12,,15.4 µM
CC1=CC(=O)O[C@@H]1[C@@]1(C)C[C@H]2OC(=O)CC3C(C)C(=O)C(O)=C1[C@]32CO,,>287 µM
CCCNc1nc(NCCCNC(=O)c2cccc(C(=O)NCCCNc3nc4c(c(NCCC)n3)CC=CC4)c2)nc2c1CC=CC2,,6.3 µM
C=C(C)[C@@H]1CC[C@]2(C(=O)O)CC[C@]3(C)[C@H](CC[C@@H]4[C@@]5(C)CC[C@H](OC(=O)CC(C)(C)C(=O)O)C(C)(C)[C@@H]5CC[C@]43C)[C@@H]12,,7 µM
CCN(CC)CCNc1nc(NCCCCNC(=O)CCCCC(=O)NCCCCNc2nc3c(c(NCCN(CC)CC)n2)CC=CC3)nc2c1CC=CC2,,>50 µM
O=C(O)C1=C[C@@H](O)[C@@H](O)[C@H](OC(=O)c2cc(O)c(O)c(OC(=O)c3cc(O)c(O)c(O)c3)c2)C1,,40 µM
C[C@H]1[C@H](C)CC[C@]2(C(=O)O)CC[C@]3(C)C(=CC[C@@H]4[C@@]5(C)CC[C@H](OC(=O)CC(C)(C)C(=O)O)C(C)(C)[C@@H]5CC[C@]43C)[C@H]12,,49.5 µM
CCOC(=O)c1cc(C(=O)c2ccc3ccccc3c2)n2ccc(C(=O)NCc3ccccn3)cc12,MTT,123.9 µM
CCOC(=O)c1cc(C(=O)c2ccc3ccccc3c2)n2ccc(C(=O)c3ccccc3)cc12,MTT,167.4 µM
O=C(OCCOCCOCCNC(=O)c1cc(C(=O)c2ccc3ccccc3c2)n2ccc(C(=O)c3ccccc3)cc12)c1ccccc1,MTT,125.4 µM
C=C(C)[C@@H]1CC[C@]2(/C=N/O)CC[C@]3(C)[C@H](CC[C@@H]4[C@@]5(C)CC/C(=N\O)C(C)(C)[C@@H]5CC[C@]43C)[C@@H]12,,5.47 µM
C[C@H]1[C@H](C)CC[C@]2(C(=O)O)CC[C@]3(C)C(=CC[C@@H]4[C@@]5(C)CC[C@H](OC(=O)CC(C)(C)C)C(C)(C)[C@@H]5CC[C@]43C)[C@H]12,,>18 µM
C=C(C)[C@@H]1CC[C@]2(C(=O)O)CC[C@]3(C)[C@H](CC[C@@H]4[C@@]5(C)CC[C@H](OC(=O)CC(C)(C)C(=O)O)C(C)(C)[C@@H]5CC[C@]43C)[C@@H]12,,>7 µM
C=C(C)[C@@H]1CC[C@]2(C(=O)O)CC[C@]3(C)[C@H](CC[C@@H]4[C@@]5(C)CC[C@H](O)C(C)(C)[C@@H]5CC[C@]43C)[C@@H]12,,12.9 µM
CC1(C)CC[C@]2(C(=O)O)CC[C@]3(C)C(=CC[C@@H]4[C@@]5(C)CC[C@H](OC(=O)CC(C)(C)C(=O)O)C(C)(C)[C@@H]5CC[C@]43C)[C@@H]2C1,,19.2 µM
C[C@H]1[C@H](C)CC[C@]2(C(=O)O)CC[C@]3(C)C(=CC[C@@H]4[C@@]5(C)CC[C@H](OC(=O)C(C)(C)CC(=O)O)C(C)(C)[C@@H]5CC[C@]43C)[C@H]12,,30.7 µM
CCOC(=O)c1cc(C(=O)c2ccc(N)cc2)n2ccc(C(=O)NCc3ccccn3)cc12,MTT,159.5 µM
C[C@H]1[C@H](C)CC[C@]2(C(=O)O)CC[C@]3(C)C(=CC[C@@H]4[C@@]5(C)CC[C@H](OC(=O)CCC(=O)O)C(C)(C)[C@@H]5CC[C@]43C)[C@H]12,,44.9 µM
CC1(C)Oc2ccc3ccc(=O)oc3c2[C@H](OC(=O)C23CCC(C)(C(=O)O2)C3(C)C)[C@H]1OC(=O)C12CCC(C)(C(=O)O1)C2(C)C,,>6.4 µM
CC(C)CCNc1ccnc(NCCCNC(=O)c2ccc(C(=O)NCCCNc3nccc(NCCC(C)C)n3)cc2)n1,,6.3 µM
CCCCCCCCCCCCCCCCCCCCCCOCC(C)(COCCCCCCCCCCCCCCCCCCCCCC)CO[C@]1(C(=O)O)C[C@H](OS(=O)(=O)O)[C@@H](NC(C)=O)[C@H]([C@H](OS(=O)(=O)O)[C@@H](COS(=O)(=O)O)OS(=O)(=O)O)O1,MTT,>100 µg/mL
CCN(CC)CCNc1ccnc(NCCCNC(=O)c2cccc(C(=O)NCCCNc3nccc(NCCN(CC)CC)n3)c2)n1,,>50 µM
CCOC(=O)c1cc(C(=O)c2ccccc2)n2ccc(C(=O)N[C@@H](Cc3c[nH]c4ccccc34)C(=O)OC)cc12,MTT,139 µM
O=C(/C=C/c1ccc(O)c2c1[C@H](C(=O)O[C@H](Cc1ccc(O)c(O)c1)C(=O)O)[C@@H](c1ccc(O)c(O)c1)O2)O[C@H](Cc1ccc(O)c(O)c1)C(=O)O,,>25 µM
O[C@H]1OC[C@H](Cc2ccc3c(c2)OCO3)[C@H]1Cc1ccc2c(c1)OCO2,,>100 µg/mL
CC(C)[C@@H]1CC[C@]2(C(=O)OC(=O)N3CCOCC3)CC[C@]3(C)[C@H](CC[C@@H]4[C@@]5(C)CC[C@H](O)C(C)(C)[C@@H]5CC[C@]43C)[C@@H]12,,35 µM
Oc1cc(O)c2c(c1)O[C@H](c1ccc(O)c(O)c1)[C@H](O)[C@H]2c1c(O)cc(O)c2c1O[C@H](c1ccc(O)c(O)c1)[C@H](O)C2,,>25 µM
CCOC(=O)c1cc(C(=O)c2ccc3ccccc3c2)n2ccc(C(=O)N[C@@H](CCSC)C(=O)OC)cc12,MTT,43.3 µM
CC1(C)Oc2ccc3ccc(=O)oc3c2[C@H](OC(=O)C23CCC(C)(C(=O)O2)C3(C)C)[C@@H]1OC(=O)C12CCC(C)(C(=O)O1)C2(C)C,,1700 µM
O=C(CCCC[C@@H]1SC[C@@H]2NC(=O)N[C@@H]21)NCCOCCOCCOc1cc(C2(C(F)(F)F)N=N2)ccc1C(=O)NCCOCCOCCNC(=O)c1cc(C(=O)c2ccc3ccccc3c2)n2ccc(C(=O)c3ccccc3)cc12,MTT,160.1 µM
Nc1nc2c(ncn2[C@@H]2O[C@H](COP(=O)(O)O)[C@@H](O)[C@H]2O)c(=O)o1,,>30 µg/mL
O=C1CCC(=O)N1CCCCCCc1ccc2c3ccccc3c3ccccc3c2c1,trypan blue,>100 µM
O=C(NCCCNc1ncccn1)c1cccc(C(=O)NCCCNc2ncccn2)c1,,>50 µM
CCOC(=O)c1cc(C(=O)c2ccc3ccccc3c2)n2ccc(C(=O)c3ccncc3)cc12,MTT,137.3 µM
CC(C)[C@@H]1CC[C@]2(C(=O)O)CC[C@]3(C)[C@H](CC[C@@H]4[C@@]5(C)CC[C@H](OC(=O)CCCC(=O)O)C(C)(C)[C@@H]5CC[C@]43C)[C@@H]12,,7.9 µM
CCOC(=O)c1cc(C(=O)c2ccccc2)n2ccc(C(=O)NCc3ccccc3)cc12,MTT,91.4 µM

For reference, 7 entries again:

structure	method	value
C=C(C)[C@@H]1CC[C@]2(C(=O)O)CC[C@]3(C)[C@H](CC[C@@H]4[C@@]5(C)CC[C@H](OC(=O)CC(C)(C)CC(=O)O)C(C)(C)[C@@H]5CC[C@]43C)[C@@H]12		4.5 µM
CC1(C)Oc2ccc3ccc(=O)oc3c2[C@H](OC(=O)C23CCC(C)(C(=O)O2)C3(C)C)[C@H]1OC(=O)C12CCC(C)(C(=O)O1)C2(C)C		>6.4 µM
C[C@H]1[C@H](C)CC[C@]2(C(=O)O)CC[C@]3(C)C(=CC[C@@H]4[C@@]5(C)CC[C@H](OC(=O)CC(C)(C)C(=O)O)C(C)(C)[C@@H]5CC[C@]43C)[C@H]12		49.5 µM
CC1(C)Oc2ccc3ccc(=O)oc3c2[C@H](OC(=O)C23CCC(C)(C(=O)O2)C3(C)C)[C@@H]1OC(=O)C12CCC(C)(C(=O)O1)C2(C)C		1700 µM
CC(C)CCNc1ccnc(NCCCNC(=O)c2ccc(C(=O)NCCCNc3nccc(NCCC(C)C)n3)cc2)n1		6.3 µM
O=C(/C=C/c1ccc(O)c2c1[C@H](C(=O)O[C@H](Cc1ccc(O)c(O)c1)C(=O)O)[C@@H](c1ccc(O)c(O)c1)O2)O[C@H](Cc1ccc(O)c(O)c1)C(=O)O		>25 µM
CCOC(=O)c1cc(C(=O)c2ccc(N)cc2)n2ccc(C(=O)NCc3ccccn3)cc12	MTT	159.5 µM

Blank or dashed fields: not listed here. CCn is the concentration with n% toxicity to the cells.